Data as given in PubChem BioAssay AID1224833 (University of Georgia, 2016).

- Screen: 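Human genes whose knock-down alters rotavirus replication in monkey cells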 (primary screen)
- System: monkey MA104 kidney cells
- Reagent: siRNA pool against human genes, 50 nM
- Timing: 48 h knock-down before infection; read 24 h after infection
- Challenge: infection with rotavirus strain RV3 two days after transfection; infectious dose for this stage not given
- Detection: 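Rotavirus antigen per well by fluorescent immunoassay, normalised to non-targeting control wells on each plate and given as a standard z-score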
- Reading the numbers: z-score vs non-targeting control: higher = more rotavirus replication than with non-targeting control
- Call rule: In these data the active calls have z-score vs non-targeting control at about -1 or lower, or at about 1 or higher
- Meaning of the calls: active = z-score beyond 1 either way; inactive = z-score within 1 of zero
This is a random part of about 12,000 reagents. About 5,600 of them (46%) count as active. 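Active calls cover z-scores past 1 in both directions, so they include lowered as well as raised rotavirus replication.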 A number with no mark means an inactive call.

no.	gene knocked down	z-score vs non-targeting control
1	TSGA10	0.387
2	NDUFV2	0.523
3	TOP2A	-1.04 (active)
4	GRB2	0.734
5	ADGRG1	-1.54 (active)
6	PDLIM1	-1.21 (active)
7	RAB11FIP3	0.402
8	ACAD8	-0.892
9	NAT9	5.32 (active)
10	C10orf71	-0.899
11	TJP3	-1.29 (active)
12	NT5DC3	0.479
13	ZNF45	-3.45 (active)
14	IFT54	-1.08 (active)
15	PELI3	0.82
16	VAMP2	-1.39 (active)
17	FAM110C	-2.28 (active)
18	TCIM	-0.698
19	C1QTNF12	-1.15 (active)
20	IL22RA2	0.533
21	CCPG1	0.315
22	SYF2	0.179
23	FMO3	-0.478
24	PTGES	-0.646
25	MSC	-1.07 (active)
26	CAPN13	-1.06 (active)
27	ANGPTL1	-0.779
28	NEUROD6	1.22 (active)
29	SH3BGRL	0.514
30	THOC1	0.449
31	PSG4	-0.821
32	TMEM161A	-0.883
33	INHA	-0.743
34	WDR54	1.05 (active)
35	EOMES	1.12 (active)
36	PSPC1	-0.142
37	INTS5	-0.0785
38	HOOK2	-0.691
39	MOB4	0.37
40	PCDHB16	-0.856
41	CCL17	0.248
42	RPE	-1.11 (active)
43	BPIFB6	-1.73 (active)
44	TNFSF12-TNFSF13	1.31 (active)
45	RPS17P12	-1.23 (active)
46	CD101	-2.07 (active)
47	EMSY	0.724
48	PTCHD1	-1.34 (active)
49	OR10AD1	-0.683
50	DRAP1	0.907
51	TMEM69	-2.39 (active)
52	DNAJB8	-0.868
53	LILRA5	-0.956
54	BKGD	-1.1 (active)
55	NINJ2	-0.483
56	NCLN	-0.99
57	JARID2	-1.13 (active)
58	ARID3C	0.773
59	PACRG	-1.07 (active)
60	C17orf78	0.524
61	ADAMTS14	0.947
62	C5orf46	0.708
63	CNTNAP3	1.69 (active)
64	SDF2	-0.868
65	SUMO2	1.99 (active)
66	HAUS8	0.513
67	CFAP57	-1.34 (active)
68	EVA1B	-1.45 (active)
69	VPS13C	-1.13 (active)
70	FPGT	0.933
71	NEU1	1.79 (active)
72	OR2T34	-1.11 (active)
73	BARHL1	-1.63 (active)
74	KRTCAP3	-0.815
75	DLAT	0.685
76	ZNF362	1.53 (active)
77	CAPN15	0.687
78	KTI12	1.24 (active)
79	BORCS5	0.822
80	CFHR5	0.561
81	OR5H14	-0.742
82	FOXA3	-0.505
83	POLK	-1.46 (active)
84	DEFB116	-1.73 (active)
85	TMEM42	0.479
86	ACAN	-0.733
87	MYADM	-0.365
88	BMP8B	-1.21 (active)
89	TREML2	-1.18 (active)
90	SHD	-0.622
91	GPC5	-2.07 (active)
92	SDHAF3	0.243
93	UNC13B	-1.82 (active)
94	CNTN6	-2.27 (active)
95	OR5L1	-0.0955
96	FHOD3	0.07
97	LGALS9C	-2.95 (active)
98	PKHD1L1	-1.3 (active)
99	THAP5	-0.242
100	CD163	-1.64 (active)
101	HP1BP3	-0.404
102	CHMP7	0.509
103	ZSCAN5A	0.951
104	PHETA1	1.36 (active)
105	ATP6V0C	-1.37 (active)
106	VCPIP1	-0.209
107	C16orf78	-3.04 (active)
108	SEMA3F	1.68 (active)
109	MLST8	-0.189
110	BLID	1.21 (active)
111	GNB1	1.72 (active)
112	SPRYD7	-1.28 (active)
113	NUP210L	-1.57 (active)
114	IL11RA	1.75 (active)
115	SERF1A	0.753
116	CEMP1	-0.676
117	SLC27A2	-0.483
118	NFKB1	0.719
119	GRHL2	0.0044
120	APIP	1.6 (active)
121	CEACAM7	0.897
122	VMA12	-1.05 (active)
123	H2BC8	-0.715
124	QSOX1	0.461
125	TAS2R5	-1.13 (active)
126	GLP1R	0.508
127	HIKESHI	-0.59
128	FANK1	-1.56 (active)
129	MIS18BP1	-0.625
130	UTP23	-1.82 (active)
131	HLA-DPA1	-0.514
132	UMPS	-1.65 (active)
133	OLFM1	0.641
134	CYP19A1	-1.85 (active)
135	CEP131	1.05 (active)
136	SPATA25	-1.4 (active)
137	TMEM177	-1.63 (active)
138	RPS16	-0.226
139	HMGCLL1	1.14 (active)
140	RORA	-0.528

10 of these entries, reformatted.
{"gene knocked down":"CNTNAP3","z-score vs non-targeting control":"1.69 (active)"}
{"gene knocked down":"SDF2","z-score vs non-targeting control":-0.868}
{"gene knocked down":"SUMO2","z-score vs non-targeting control":"1.99 (active)"}
{"gene knocked down":"HAUS8","z-score vs non-targeting control":0.513}
{"gene knocked down":"CFAP57","z-score vs non-targeting control":"-1.34 (active)"}
{"gene knocked down":"EVA1B","z-score vs non-targeting control":"-1.45 (active)"}
{"gene knocked down":"VPS13C","z-score vs non-targeting control":"-1.13 (active)"}
{"gene knocked down":"FPGT","z-score vs non-targeting control":0.933}
{"gene knocked down":"NEU1","z-score vs non-targeting control":"1.79 (active)"}
{"gene knocked down":"OR2T34","z-score vs non-targeting control":"-1.11 (active)"}
